PubChem BioAssay AID1259414, Drosophila RNAi Screening Center, 2018

Assay: 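Genome-wide screen for host control of endosymbiont load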 (primary screen)
Cells: Drosophila JW18 cells infected with Wolbachia
Reagents: long dsRNA against Drosophila genes, 0.25 µg dsRNA per well of a 384-well plate
Time to read-out: 5 days
Challenge: cells persistently infected with Wolbachia before knock-down; no added drug
Read-out: 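Imaged fluorescence in situ signal for Wolbachia 23S rRNA per DAPI-counted host cell, given as a robust z-score within each plate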
Scale: Wolbachia per cell robust z: higher = more Wolbachia per host cell than the plate typical
Rule for the call: 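Hit when robust z is 1.5 or more, or -1.5 or less, in at least two of three replicates; excludes dsRNAs with several or no targets, genes not expressed in JW18 and well A1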
In all, the deposit lists about 24,000 reagents; below is an unselected part of those that have a named target and a result. In the full data, about 1,210 (5%) were called active. 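Inactive calls also include excluded dsRNAs with several or no targets, genes unexpressed in JW18, and well A1, regardless of score.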

With knock-down of CG18094 [DRSC02655], the screen gave Wolbachia per cell robust z, rep 1 = -0.503; Wolbachia per cell robust z, rep 2 = -0.259; Wolbachia per cell robust z, rep 3 = 0.585; inactive. After knock-down of RhoGDI [DRSC10919] the results were Wolbachia per cell robust z, rep 1 = -2.18; Wolbachia per cell robust z, rep 2 = -0.74; Wolbachia per cell robust z, rep 3 = 0.417; inactive. mei-W68 (meiotic W68) [DRSC07649] gave Wolbachia per cell robust z, rep 1 = 0.799; Wolbachia per cell robust z, rep 2 = 1.13; Wolbachia per cell robust z, rep 3 = 0.41; inactive. Asap (ArfGAP with SH3 domain, ankyrin repeat and PH domain) [DRSC06493] gave Wolbachia per cell robust z, rep 1 = 0.072; Wolbachia per cell robust z, rep 2 = 0.943; Wolbachia per cell robust z, rep 3 = 0.631; inactive. With knock-down of Asap (ArfGAP with SH3 domain, ankyrin repeat and PH domain) [DRSC06830], the screen gave Wolbachia per cell robust z, rep 1 = 0.791; Wolbachia per cell robust z, rep 2 = -6.31; Wolbachia per cell robust z, rep 3 = 1.36; inactive. CG8993 [DRSC08616] showed Wolbachia per cell robust z, rep 1 = -0.894; Wolbachia per cell robust z, rep 2 = -0.959; Wolbachia per cell robust z, rep 3 = -0.396; inactive.

With knock-down of CG8993 [DRSC27318] the results were Wolbachia per cell robust z, rep 1 = 0.215; Wolbachia per cell robust z, rep 2 = -0.32; Wolbachia per cell robust z, rep 3 = 0.558; inactive. CG8993 [DRSC41267] scored Wolbachia per cell robust z, rep 1 = -1.5; Wolbachia per cell robust z, rep 2 = -1.13; Wolbachia per cell robust z, rep 3 = 1.28; inactive. CG32074 [DRSC22246] showed Wolbachia per cell robust z, rep 1 = 0.361; Wolbachia per cell robust z, rep 2 = 0.839; Wolbachia per cell robust z, rep 3 = -1.15; inactive. Silencing of CG32074 [DRSC26504] resulted in: Wolbachia per cell robust z, rep 1 = 0.353; Wolbachia per cell robust z, rep 2 = 1.23; Wolbachia per cell robust z, rep 3 = 0.447; inactive. Knock-down of CG13192 [DRSC06317] resulted in: Wolbachia per cell robust z, rep 1 = 0.756; Wolbachia per cell robust z, rep 2 = -2.86; Wolbachia per cell robust z, rep 3 = 0.361; inactive. With knock-down of Osi19 (Osiris 19) [DRSC12569], the screen gave Wolbachia per cell robust z, rep 1 = -0.222; Wolbachia per cell robust z, rep 2 = -2.77; Wolbachia per cell robust z, rep 3 = -7.63; inactive.

CG7745 [DRSC23103] scored Wolbachia per cell robust z, rep 1 = 0.111; Wolbachia per cell robust z, rep 2 = -2.07; Wolbachia per cell robust z, rep 3 = 1.63; inactive. For CG7745 [DRSC29591] the deposit lists Wolbachia per cell robust z, rep 1 = -4.82; Wolbachia per cell robust z, rep 2 = -0.312; Wolbachia per cell robust z, rep 3 = -3.01; active.

4 of these entries, set out differently:
CG8993 [DRSC41267]
- Wolbachia per cell robust z, rep 1: -1.5
- Wolbachia per cell robust z, rep 2: -1.13
- Wolbachia per cell robust z, rep 3: 1.28
- activity call: inactive

CG32074 [DRSC22246]
- Wolbachia per cell robust z, rep 1: 0.361
- Wolbachia per cell robust z, rep 2: 0.839
- Wolbachia per cell robust z, rep 3: -1.15
- activity call: inactive

CG32074 [DRSC26504]
- Wolbachia per cell robust z, rep 1: 0.353
- Wolbachia per cell robust z, rep 2: 1.23
- Wolbachia per cell robust z, rep 3: 0.447
- activity call: inactive

CG13192 [DRSC06317]
- Wolbachia per cell robust z, rep 1: 0.756
- Wolbachia per cell robust z, rep 2: -2.86
- Wolbachia per cell robust z, rep 3: 0.361
- activity call: inactive

More reagents:
Against CG17784 [DRSC15268], the values are Wolbachia per cell robust z, rep 1 = -4.39; Wolbachia per cell robust z, rep 2 = 0.66; Wolbachia per cell robust z, rep 3 = 0.277; inactive. Against crq (croquemort) [DRSC00810], the values are Wolbachia per cell robust z, rep 1 = -0.177; Wolbachia per cell robust z, rep 2 = 0.45; Wolbachia per cell robust z, rep 3 = 2.39; inactive. With knock-down of nenya [DRSC13838], the record shows Wolbachia per cell robust z, rep 1 = -0.329; Wolbachia per cell robust z, rep 2 = -4.77; Wolbachia per cell robust z, rep 3 = -0.62; inactive. For Cul2 (Cullin 2) [DRSC03710], the entry reads Wolbachia per cell robust z, rep 1 = 0.0998; Wolbachia per cell robust z, rep 2 = 0.23; Wolbachia per cell robust z, rep 3 = 0.422; inactive. Against CG4955 [DRSC19927], the values are Wolbachia per cell robust z, rep 1 = -0.479; Wolbachia per cell robust z, rep 2 = -0.49; Wolbachia per cell robust z, rep 3 = 0.237; inactive. For sa (spermatocyte arrest) [DRSC11649], the entry reads Wolbachia per cell robust z, rep 1 = -0.636; Wolbachia per cell robust z, rep 2 = -0.0926; Wolbachia per cell robust z, rep 3 = 0.793; inactive.

Against CG31809 [DRSC01561], the entry reads Wolbachia per cell robust z, rep 1 = -0.246; Wolbachia per cell robust z, rep 2 = 0.248; Wolbachia per cell robust z, rep 3 = -0.738; inactive. With knock-down of wnd (wallenda) [DRSC11046] the results were Wolbachia per cell robust z, rep 1 = 0.191; Wolbachia per cell robust z, rep 2 = -0.276; Wolbachia per cell robust z, rep 3 = 0.768; inactive. Depletion of wnd (wallenda) [DRSC21373] resulted in: Wolbachia per cell robust z, rep 1 = -0.999; Wolbachia per cell robust z, rep 2 = 0.0856; Wolbachia per cell robust z, rep 3 = -0.775; inactive. After knock-down of Fum1 (Fumarase 1) [DRSC18344] the results were Wolbachia per cell robust z, rep 1 = -0.944; Wolbachia per cell robust z, rep 2 = 1.38; Wolbachia per cell robust z, rep 3 = 0.255; inactive. Fum1 (Fumarase 1) [DRSC27406] showed Wolbachia per cell robust z, rep 1 = -6.28; Wolbachia per cell robust z, rep 2 = -1.22; Wolbachia per cell robust z, rep 3 = -0.473; inactive.
